Pooled drug test results. Numbers come from NIAID ChemDB, via PubChem.

Shared fields: cytotoxicity tests; cell line: MT-2; read by: MTT; measure: CC50

Lines come from different laboratories, so protocols vary. CCn is the concentration with n% toxicity to the cells. Two numbers with a dash give a range or band.

structure,value
Cc1ccnc2c1NC(=O)c1cccnc1N2C1CC1,50 µM
O=C(O)[C@H]1O[C@@H](Oc2cc3oc(-c4ccc(O)cc4)cc(=O)c3c(O)c2O)[C@H](O)[C@@H](O)[C@@H]1O,>1082 µM
NS(=O)(=O)c1ccc(N2C(=O)CSC2c2ccccc2Cl)cc1,21 µM
Clc1ccc(Nc2nnc(Nc3c(Cl)cccc3Cl)o2)cc1Cl,62 µM
COc1cc2c(c(OC)c1)[C@@H](N1CCCC1=O)C[C@@H](c1cccc([N+](=O)[O-])c1)N2,>50 µM
CC(c1nnc(Nc2ccc(C#N)cc2)o1)c1c(F)cccc1F,5.2 µM
N#Cc1cc(Cl)cc(Oc2ccc(Cl)cc2OCCn2ccc(=O)[nH]c2=O)c1,>100 µM
CC(C)CN(C[C@@H](O)[C@H](Cc1ccccc1)NC(=O)O[C@H]1CO[C@H]2OCC[C@H]21)S(=O)(=O)c1ccc2c(c1)OCO2,35.7 µM
COc1ccc2nc(-c3cccc([N+](=O)[O-])c3)ccc2c1,122 µM
CC(=O)COc1cc2c(c(O)c1Br)C(=O)C1C(O)=CC(C)=CC1C2=O,30 µM
O=C1CCCN1[C@H]1C[C@@H](c2cccc([N+](=O)[O-])c2)Nc2ccc(I)cc21,>50 µM
O=C(Oc1ccc2c(c1OC(=O)c1ccccc1)C(=O)c1ccccc1C2=O)c1ccccc1,>100 µM
CC(=O)COc1c(Br)c(O)c2c(c1Br)C(=O)C1C=C(C)C=C(O)C1C2=O,18 µM
COc1nc(Nc2ccc(C#N)c(OCC=C(C)C)c2)nc(OCCCCOc2nc(Nc3ccc(C#N)c(OCC=C(C)C)c3)nc(OC)n2)n1,100 µM
Cc1cccnc1N1C(=O)CSC1c1c(C)cccc1C,≥182 µM
Cc1cc(C)nc(NC(=S)NCCc2c(Cl)cccc2Cl)c1,93 µM
Clc1ccccc1Nc1nnc(Cc2c(Cl)cccc2Cl)o1,>100 µM
COc1cc(CCNC(=S)Nc2cccc(C)n2)cc(OC)c1OC,81 µM
N#Cc1ccc(Oc2cc(Cl)cc(Cl)c2)c(OCCn2ccc(=O)[nH]c2=O)c1,>61 µM
Cc1cc2cc(C#N)cn2c(C)c1Nc1ccnc(Nc2ccc(C#N)cc2)n1,10.1 µM
O=C1CSC(c2ccccn2)N1c1ccc(Cl)cn1,>10 µM
COc1ccc(OC)c(CCNC(=S)Nc2ccnc(=O)[nH]2)c1F,>100 µM
Nc1nc(NC2CC2)c2ncn([C@H]3CO[C@@H](CO)O3)c2n1,>250 µM
C=C1CC[C@@H](OC(C)=O)[C@@]2(C)CCC3[C@](C)(CC[C@]3(O)C(C)C)C[C@]12O,935 µM
N#Cc1cc(C#N)cc(Oc2cc(Cl)ccc2OCCn2ccc(=O)[nH]c2=O)c1,77 µM
CC(=O)O[C@H]1CC[C@H](O)CC[C@@H](C)/C=C/[C@@]2(C)CC[C@@H](C(C)(C)OC(C)=O)[C@H]12,1345–1456 µM
C[C@H]1[C@H](O)[C@@H](C)/C=C/C=C/C=C/C=C/C=C/C=C/C=C/[C@H](O[C@@H]2O[C@H](C)[C@@H](O)[C@H](N)[C@@H]2O)C[C@@H]2O[C@](O)(C[C@@H](O)C[C@@H](O)CC[C@H](O)[C@@H](O)C[C@@H](O)CC(=O)O[C@H]1C)C[C@H](O)[C@H]2C(=O)O,>10 µM
NC(N)=NCCC[C@H](N)C(=O)NC[C@@H]1OC(O[C@H]2[C@@H](O)[C@H](O[C@@H]3[C@@H](O)[C@H](NC(=O)[C@@H](N)CCCN=C(N)N)C[C@H](NC(=O)[C@@H](N)CCCN=C(N)N)[C@H]3O[C@H]3O[C@H](CNC(=O)[C@@H](N)CCCN=C(N)N)[C@@H](O)[C@H](O)[C@H]3NC(=O)[C@@H](N)CCCN=C(N)N)O[C@@H]2CO)[C@H](NC(=O)[C@@H](N)CCCN=C(N)N)[C@@H](O)[C@@H]1O,275 µM
Clc1ccc(Nc2nnc(Cc3c(Cl)cccc3Cl)o2)c(Cl)c1,45 µM
COc1cc(CCNC(=S)Nc2ccc(Cl)cn2)cc(OC)c1OC,>100 µM
Cc1cccc(Cl)c1CN1CCc2cc(-c3c(C)nc(C)c([C@H](OC(C)(C)C)C(=O)O)c3N3CCC(C)(C)CC3)ccc2C1,≥24 µM
COc1ccc(OC)c(CCNC(=S)Nc2ccc(Br)cn2)c1,>1 µM
O=c1nccc(NC(=S)NCCc2ccccc2F)[nH]1,>100 µM

Again, the opening 2 rows:

structure,value
Cc1ccnc2c1NC(=O)c1cccnc1N2C1CC1,50 µM
O=C(O)[C@H]1O[C@@H](Oc2cc3oc(-c4ccc(O)cc4)cc(=O)c3c(O)c2O)[C@H](O)[C@@H](O)[C@@H]1O,>1082 µM